Results of unrelated studies side by side (data: NIAID ChemDB).

Common to all: tests in culture; agent: Candida albicans; measure: MIC

a–b is a range or a potency band. Blank or dashed fields: not listed here. Rows are shuffled and stem from different studies.

smiles | strain | method | setting | result
CC(=O)N1CCN(c2ccc(OC[C@H]3CO[C@](Cn4ccnc4)(c4ccc(Cl)cc4Cl)O3)cc2)CC1 | Isogenic isolate 15 Erg11 (4-5X) R467K |  |  | 0.03 µg/mL
Cc1c(N2CC3CCC(C)(NC(=O)[C@H](C)N)C3C2)c(F)cn2c(=O)c(C(=O)O)cc(C3CC3)c12.Cl | CCH442 |  |  | >100 µg/mL
CN1CCN(c2c(F)cn3c(=O)c(C(=O)O)cc(-c4ccccc4)c3c2F)CC1.Cl | CCH442 |  |  | >100 µg/mL
C=C1CC[C@H]2C(C)(C)CCC[C@]2(C)[C@H]1C/C(OS(=O)(=O)[O-])=C(\C)CCC/C(C)=C/Cc1cc(O)ccc1O.[Na+] | ATCC 10231 |  |  | >100 µg/mL
CC(Cc1ccc(C(C)(C)C)cc1)CN1CC(C)OC(C)C1 | YAG237 (genotype CNB1-1/CNB1) |  |  | 3.12 µg/mL
Cc1c(N2CC(CN)C2)c(F)cn2c(=O)c(C(=O)O)cc(C3CC3)c12 | CCH442 |  |  | >100 µg/mL
O=C1NC(=S)SC1C(Sc1ccccc1)c1ccc2ccccc2c1 | ATCC 2091 | broth dilution |  | 64 µg/mL
Cc1c(F)c(N2CCC(N)C2)cc2c(C3CC3)cc(C(=O)O)c(=O)n12 | CCH442 |  |  | >100 µg/mL
COc1cc(O)c2c(=O)c(OC)c(-c3ccc(OC4O[C@H](CO)[C@@H](O)[C@H](O)[C@H]4O)cc3)oc2c1 | ATCC 10231 |  |  | 80 µg/mL
CC1=C(N2CCC(NCCF)C2)C(F)=CN2C(=O)C(C(=O)O)=CC(C3CC3)C12 | CCH442 |  |  | 100 µg/mL
Cc1cc2c(c(=O)o1)C(c1cc3ccccc3nc1Sc1ccccc1)C(C#N)=C(N)O2 | MTCC 227 | broth dilution |  | 250 µg/mL
CC1/C=C/C=C/C=C/C=C/C=C/C(O)C(C)C(O)CC(O)CC(O)CCCC(O)CC(O)C(C)C(=O)OC1C |  |  |  | 10 µg/mL
CCCOc1cc2cc[n+](C)c(CCC)c2cc1OCCC | IFO1061 |  |  | >500 µg/mL
C/C(=N\NC(=S)Nc1ccc(C(=O)O)cc1)c1ccccc1 |  |  |  | 3.1 µM
CC(C)=CCC/C(C)=C/CC/C(C)=C/CC[C@@]1(C)[C@H](CCCO)/C(=C(/C)C=O)CC[C@]1(C)O | SR78 |  |  | >50 µg/mL
CCN(CC)N1C(=O)C(C(Sc2ccccc2)c2ccc3ccccc3c2)SC1=S | ATCC 2091 | broth dilution |  | 32 µg/mL
CCc1c2cc(OCc3ccccc3)c(OCc3ccccc3)cc2cc[n+]1C | IFO1061 |  |  | 250 µg/mL
C=CC(O)C#CC#CC(O)C(O)/C=C/CCCCCC | 105 |  |  | 200–400 µg/mL
Cc1ccc(Sc2nc3ccccc3cc2C2C(C#N)=C(N)Oc3c2c(=O)oc2ccccc32)cc1 | MTCC 227 | broth dilution |  | 500 µg/mL
C[C@@H]1O[C@@H](OC[C@H]2O[C@@H](Oc3c(-c4ccc(O)cc4)oc4cc(O)cc(O)c4c3=O)[C@H](O)[C@@H](O)[C@@H]2O)[C@H](O)[C@H](O)[C@H]1O | ATCC 10231 |  |  | 320 µg/mL
O=C1C(c2ccc(Cl)cc2)=[N+]([O-])c2cccnc21 |  |  |  | 15.63 µg/mL
CCOP(=O)(OCC)C(F)(F)[C@@H]1[C@@H](O)[C@H](O)[C@H](CO)N1CCNC1[C@@H](CO)O[C@H](OC)[C@H](NC(C)=O)[C@H]1O |  |  |  | >128 µg/mL
CN(C)c1ccc(/C=N/NC(=S)Nc2ccc(C(=O)NO)cc2)cc1 |  |  |  | 1.83 µM
Clc1ccc(COC(Cn2ccnc2)c2ccc(Cl)cc2Cl)c(Cl)c1 |  |  |  | 8 µg/mL
Cc1c(N2CCCC(O)C2)c(F)cn2c(=O)c(C(=O)O)cc(C3CC3)c12 | CCH442 |  |  | >100 µg/mL
O=c1c2ccccc2[se]n1CO |  | agar |  | 228 µg/mL
CCN(CC)N1C(=O)C(C(Sc2ccccc2)c2ccc(C)cc2C)SC1=S | ATCC 2091 | broth dilution |  | 32 µg/mL
CC1=CCC[C@@H](C)C1(C)CC/C(C)=C/CCC(CCCc1ccoc1)COS(=O)(=O)[O-] | ATCC 10231 |  |  | >100 µg/mL
O=C1/C(=C/c2ccccc2)CN(C(=O)/C=C/c2ccccc2)C/C1=C\c1ccccc1 | 1 clinical isolate |  |  | >32 µg/mL
c1ccc(CCCCCCCC[n+]2c3ccccc3cc3[nH]c4ccccc4c32)cc1 | B311 |  |  | 10 µg/mL
O=[N+]([O-])c1ccc(CNC2CCc3c(O)cccc3C2)cc1 |  |  |  | >64 µM
N#[N+]c1nc(-c2ccc([N+](=O)[O-])cc2)[nH]c1C(=O)N1CCCC1 | ATCC 10231 |  |  | 100 µg/mL
COc1ccc(C(=O)/C=C/c2ccc(C(=O)O)cc2)cc1OC | 1 clinical isolate |  |  | >32 µg/mL
Cc1c(N2CC(N)C3(C2)OCCO3)c(F)cn2c(=O)c(C(=O)O)cc(C3CC3)c12.Cl | CCH442 |  |  | >100 µg/mL
CCOc1ccc(Cc2c3cc(OCC)c(OCC)cc3cc[n+]2C)cc1OCC | IFO1061 |  |  | >500 µg/mL
O=c1c2ccccc2[se]n1C1C2CC3CC(C2)CC1C3 |  | agar |  | 5 µg/mL
NC(=S)c1ncn([C@@H]2O[C@H](CO)[C@@H](O)[C@H]2O)c1S |  |  |  | 0.05 µM
CCc1c2cc(O)c(O)cc2cc[n+]1C | IFO1061 |  |  | >500 µg/mL
O=C(O)c1ccc(NC(=S)N/N=C/c2ccccc2)cc1 |  |  |  | 1.73 µM
Cc1nc([N+]#N)c(C(=O)N2CCCC2)[nH]1 | ATCC 10231 |  |  | 200 µg/mL
C[C@H]1[C@H](O)[C@@H](C)/C=C/C=C/C=C/C=C/C=C/C=C/C=C/[C@H](O[C@@H]2O[C@H](C)[C@@H](O)[C@H](N)[C@@H]2O)C[C@@H]2O[C@](O)(C[C@@H](O)C[C@@H](O)CC[C@H](O)[C@@H](O)C[C@@H](O)CC(=O)O[C@H]1C)C[C@H](O)[C@H]2C(=O)O | ATCC 10231 |  |  | 1.6 µg/mL
O=C(O)c1ccc(NC(=S)N/N=C/c2cccc([N+](=O)[O-])c2)cc1 |  |  |  | 2.31 µM
COC(OC)C(C)n1[se]c2ccccc2c1=O |  | agar |  | >512 µg/mL
COc1ccc(/C=N/NC(=S)Nc2ccc(C(=O)O)cc2)cc1 |  |  |  | 3.01 µM
COc1cc(O)c2c(c1)OC(c1ccc(O)cc1)CC2=O | CBMAI 560 | broth dilution |  | 320 µg/mL
COc1ccc(/C=C/C(=O)N2C/C(=C\c3ccccc3)C(=O)/C(=C/c3ccccc3)C2)cc1OC | 1 clinical isolate |  |  | >32 µg/mL
O=C(Nc1cccc(Cl)c1)n1[se]c2ccccc2c1=O |  | agar |  | >512 µg/mL
O=C1C(c2ccc(Cl)cc2)=[N+]([O-])c2cc[n+]([O-])cc21 |  |  |  | 15.63 µg/mL
N#CC1=C(N)Oc2c(c(=O)oc3ccccc23)C1c1cc2ccccc2nc1Sc1ccccc1 | MTCC 227 | broth dilution |  | 250 µg/mL
CSCC[C@H](N)[C@@H]1CCN(c2c(F)cn3c(=O)c(C(=O)O)cc(C4CC4)c3c2C)C1 | CCH442 |  |  | >100 µg/mL
CC1(C)CCC(C)(C)c2cc(-c3nc4ccc([N+](=O)[O-])cc4[nH]3)ccc21 |  |  |  | 100 µg/mL
CC1=C(N2C[C@@H](CF)[C@@H](N)C2)C(F)=CN2C(=O)C(C(=O)O)=CC(C3CC3)C12 | CCH442 |  |  | >100 µg/mL
CC(=O)O.Cc1c(N2CCCNCC2)c(F)cn2c(=O)c(C(=O)O)cc(C3CC3)c12 | CCH442 |  |  | >100 µg/mL
O=C(O)c1ccccc1O |  |  |  | >50 µM
Cc1ccc2nc(Sc3ccccc3)c(C3C(C#N)=C(N)Oc4c3c(=O)oc3ccc(C)cc43)cc2c1 | MTCC 227 | broth dilution |  | 500 µg/mL
CCC[n+]1c2ccccc2cc2[nH]c3ccccc3c21 | B311 |  |  | 250 µg/mL
Oc1cc(Cl)cc2cc(Cl)cnc12 | ATCC 60913 |  | 24 h | 12 µg/mL
C/C(=N\NC(=S)Nc1ccc(C(=O)NO)cc1)c1ccccc1 |  |  |  | 3 µM
N=C(N)c1ccc2c(c1)[nH]c1cc(C(=N)N)ccc12 | A39 |  |  | 0.78 µg/mL
NCCCn1ccnc1 |  |  |  | >50 µM
Cc1c(N2CC[C@H](NC(=O)[C@H](C)NC(=O)[C@H](C)N)C2)c(F)cn2c(=O)c(C(=O)O)cc(C3CC3)c12 | CCH442 |  |  | >100 µg/mL
Cc1ccc2oc(=O)c3c(c2c1)OC(N)=C(C#N)C3c1cc2ccccc2nc1Sc1ccc(Cl)cc1 | MTCC 227 | broth dilution |  | 1000 µg/mL
O=C(O)CC[N+](=O)[O-] | ATCC 10231 |  |  | >100 µg/mL
c1ccc(CC[n+]2c3ccccc3cc3[nH]c4ccccc4c32)cc1 | B311 |  |  | 250 µg/mL
Oc1c(Cl)ccc2cccnc12 | ATCC 60913 |  | 24 h | 12 µg/mL
CCCCCCCCCCNC1CCc2c(O)cccc2C1 |  |  |  | <0.125 µM
Cc1ccc(Sc2nc3ccc(C)cc3cc2C2C(C#N)=C(N)Oc3c2c(=O)oc2ccc(C)cc32)cc1 | MTCC 227 | broth dilution |  | >1000 µg/mL
COc1cc2c(c3oc(=O)c4c(c13)CCC4=O)[C@H]1C[C@H](OC(C)=O)O[C@H]1O2 |  | agar |  | >100 µM
Cc1ccc(/C=N/NC(=S)Nc2ccc(C(=O)NO)cc2)cc1 |  |  |  | 2.16 µM
O=C1C(c2ccc(Oc3ccccc3)cc2)=[N+]([O-])c2ccccc21 |  |  |  | >125 µg/mL
C[C@H]1[C@H](O)[C@@H](C)/C=C/C=C/C=C/C=C/C=C/C=C/C=C/[C@H](O[C@@H]2O[C@H](C)[C@@H](O)[C@H](N)[C@@H]2O)C[C@@H]2O[C@](O)(C[C@@H](O)C[C@@H](O)CC[C@H](O)[C@@H](O)C[C@@H](O)CC(=O)O[C@H]1C)C[C@H](O)[C@H]2C(=O)O | ATCC 32354 | broth dilution |  | 1.48 µM
Cn1[se]c2ccccc2c1=O |  | agar |  | 3 µg/mL
O=C1NC(=S)SC1C(Sc1ccccc1)c1c(Cl)cccc1Cl | ATCC 2091 | broth dilution |  | 64 µg/mL
N#[N+]c1nc(-c2ccc(F)cc2)[nH]c1C(=O)N1CCCC1 | ATCC 10231 |  |  | 50 µg/mL
COC(=O)CCC(=O)O[C@H]1C[C@@H]2c3c(cc(OC)c4c5c(c(=O)oc34)C(=O)CC5)O[C@@H]2O1 |  | agar |  | >100 µM
OC(Cn1cncn1)(Cn1cncn1)c1ccc(F)cc1F | TW 07239 | broth dilution |  | 256 µg/mL
C[N+](C)(C)CCn1[se]c2ccccc2c1=O |  | agar |  | >512 µg/mL
CC[n+]1c2ccccc2cc2[nH]c3ccccc3c21 | B311 |  |  | 250 µg/mL
Cc1c(F)c(N2CCC(N)C2)cc2c(C3CC3)cc(C(=O)O)c(=O)n12.Cl | CCH442 |  |  | >100 µg/mL
O=c1c2ccccc2[se]n1C(CO)CO |  | agar |  | 272 µg/mL
Oc1c(Cl)cc(Cl)c2cccnc12 | ATCC 60913 |  | 48 h | 6.2 µg/mL
O=C1/C(=C/c2ccccc2)CN(C(=O)/C=C/c2ccc3c(c2)OCO3)C/C1=C\c1ccccc1 | 1 clinical isolate |  |  | >32 µg/mL
CCCC1=[N+](CCC)CCc2cc(O)c(O)cc21 | IFO1061 |  |  | >500 µg/mL
Cc1ccc(/C(Cl)=N/NC(=S)Nc2ccc(C(=O)NO)cc2)cc1 |  |  |  | 1.29 µM
CCCCCCCCCCNC1CCc2cccc(O)c2C1 |  |  |  | <0.125 µM